Reference: article PMC7098451

Tested on: Nc1ccn([C@@H]2O[C@H](COP(=O)(O)OP(=O)(O)OP(=O)(O)O)[C@@H](O)[C@H]2O)c(=O)n1
Assay: purified protein
Details: pH 8.5; 37.0 °C

“LpCLS (Legionella pneumophila CMP-Leg5,7Ac2 synthetase) (Legionella pneumophila subsp. pneumophila str. Philadelphia 1)” was tested, and the Km was 1100 ± 200 µM.
